Tested on: beta amyloid aggregates
Experiment: Clinical trial: fluorescence lifetime ratio (signal/background) in the eye after ocular dosing of Fluorescent Ligand, discriminating HV from AD
Type: in vivo, human
Conditions: HV N=20 vs AD N=20; three doses to test eye, measurement 18 hrs after first dose; FIG. 5

SMILES: COCCOCCOCCOC(=O)/C(C#N)=C/c1ccc2cc(N3CCCCC3)ccc2c1 [Aftobetin]
- threshold ratio (signal/background) that can discriminate between the groups: around 0.37

Reference: US20200138351A1, “Method for Measuring Fluorescence in Ocular Tissue” (Cognoptix, Inc., priority 2013, published 2020)
